Test results reported in publication PMC3868556.
The exact form of at least one protein or probe is not confirmed.

System: ComP
Assay: SPR
Settings: 30 uM ComP, no measurable difference from DUS, SPR (ProteOn XPR36, NLC chip): 25 mM HEPES pH 7.9, 150 mM NaCl, 2.5 mM MgCl2, 0.05% Tween-20, 25 C, recombinant protein, protein details: MBP fusion (pMAL-p2X), MBP removed with factor Xa, label: 5'-biotin on strand 1

Sequence	binding result
TGACCAGGTCGTCTGAACAAAC (double strand) [DUSvar2]	binds
TGACCAGGCCGTCTGAACAAAC (double strand) [DUSvar1]	binds
